Compound potency records, mixed from different reports. Data source: NIAID ChemDB in PubChem.

All rows: cytotoxicity tests; endpoint: CC50

Conditions beyond the fields shown may differ between rows.

SMILES,cell line,method,value
Cc1ccc(OC(=O)NCCc2ccc3c(n2)NCCC3)cc1,PBMC,-,50 µM
CN(C)C(=O)c1cccc(-c2cc(=O)n(O)c3ncccc23)c1,HeLa,-,<100 µM
O=C(NCCc1cccc(-n2ccnc2)n1)NC1CCCCC1,PBMC,-,50 µM
CN(Cc1ccccc1)c1cc(=O)n(O)c2ncccc12,HeLa,-,<100 µM
NC(=S)Nc1cccc(OCCCCCOc2cccc(-c3ccccc3)c2)c1,Ava5-EG(delta4AB)SEAP,MTS,>1 µM
Cn1cnc2c(NC(=O)NCCc3ccc4c(n3)NCCC4)cccc21,PBMC,-,50 µM
O=c1cc(N[C@H]2CCN(Cc3ccccc3)C2)c2cccnc2n1O,HeLa,-,<100 µM
COC(=O)CCCC1=NCCc2cc(OC)c(OC)cc21,RAJI,-,<7.5 µM
COc1ccc(NC(=O)c2c(O)c3cccnc3n(O)c2=O)cn1,HeLa,-,<100 µM
O=C(NCCc1ccc2c(n1)NCCC2)Nc1ccc(Cl)nc1,PBMC,-,0.09 µM
CCCCCNC(=S)Nc1ccc2c(c1)Cc1cc(Br)ccc1-2,Ava5-EG(delta4AB)SEAP,MTS,>1 µM
O=C(Cc1ccccc1)NCCc1ccc2c(n1)NCCC2,PBMC,-,12 µM
COC(=O)c1cc(-c2cccs2)nc2ccccc12,HepG2,-,>20 µM
NC(=S)Nc1ccc2c(c1)Cc1cc(Br)ccc1-2,Ava5-EG(delta4AB)SEAP,MTS,>1 µM
O=C(NCCc1ccc(Cl)c(Cl)c1)NCCc1ccc2c(n1)NCCC2,PBMC,-,1.8 µM
NC(=S)Nc1cccc(OCCCCCOc2ccc(-c3cccs3)cc2)c1,Ava5-EG(delta4AB)SEAP,MTS,>1 µM
CC(C)N(Cc1cccc(OCCCCCC(=O)OC(=O)O)c1)C(=O)c1ccc(-c2cccc(O)c2)cc1,RAJI,-,>20 µM
O=C(Cc1ccc(Cl)cc1)NCCc1ccc2c(n1)NCCC2,PBMC,-,50 µM
N#Cc1cccc(-c2cccc(-c3cc(=O)n(O)c4ncccc34)c2)c1,HeLa,-,<100 µM
CCOC(=O)CCCCCOc1cccc(CN(C(=O)c2ccc(-c3cnc(OC)nc3OC)cc2)C(C)C)c1,BJ,-,>20 µM
NC(=S)Nc1ccc(OCCCCCOc2ccc(Cl)cc2Cl)cc1,Ava5-EG(delta4AB)SEAP,MTS,>1 µM
Nc1ccc(-c2cccc(Cc3cc(=O)n(O)c4ncccc34)c2)cc1,HeLa,-,<100 µM
COc1ccc(OC(=O)NCC2CCc3ccccc3N2)cc1,PBMC,-,50 µM
NCc1ccc(-c2ccc(-c3c(-c4ccccc4)c(=O)n(O)c4ncc(F)cc34)cc2)cc1,HeLa,-,0.25 µM
CCOC(=O)CCCCCOc1cccc(CN(C(=O)c2ccc(-c3cccc(OC)c3)cc2)C(C)C)c1,BJ,-,>20 µM
COc1ccc(OCCCCCOc2cccc(NC(N)=S)c2)cc1OC,Ava5-EG(delta4AB)SEAP,MTS,>1 µM
O=C(NCCc1ccc2c(n1)NCCC2)NC1C2CC3CC(C2)CC1C3,PBMC,-,20 µM
COc1ccc(CCNC(=O)CCO[Si](C)(C)C(C)(C)C)cc1OC,BJ,-,<13.5 µM
Cc1[nH]nc2c1c(=O)n(O)c1ncccc21,HeLa,-,<100 µM

3 of the rows above, restated:

SMILES,cell line,method,value
N#Cc1cccc(-c2cccc(-c3cc(=O)n(O)c4ncccc34)c2)c1,HeLa,-,<100 µM
CCOC(=O)CCCCCOc1cccc(CN(C(=O)c2ccc(-c3cccc(OC)c3)cc2)C(C)C)c1,BJ,-,>20 µM
COc1ccc(OCCCCCOc2cccc(NC(N)=S)c2)cc1OC,Ava5-EG(delta4AB)SEAP,MTS,>1 µM

CCn is the concentration with n% toxicity to the cells. An empty or dashed field is not shown.